Pooled drug test results. Numbers come from NIAID ChemDB, via PubChem.

Common to all: enzyme or target tests

Neighbouring rows are from separate reports. Inhibition is in % at the dose shown (toxicity tests: loss of growth or viability). Blank or dashed fields: not listed here. a–b is a range or a potency band. ICn is the concentration giving n% inhibition.

smiles	strain	dose	target	measure	organism	read by	value
O=C(O)c1cc2nc(-c3ccc(Cl)cc3Cl)cc(-c3ccc(Oc4ccccc4)cc3)n2n1			RNA-dependent RNA polymerase	IC50	Hepatitis C virus		>10 µM
Cc1ccsc1-c1nc(C(=O)O)c(O)c(=O)[nH]1			HCV polymerase	IC50	Hepatitis C virus		<25 µM
O=C(O)c1ccc(-c2ccc(CN(C(=O)c3ccc(Cl)cc3Cl)[C@@H](Cc3ccccc3)C(=O)O)s2)cc1			RNA-dependent RNA polymerase	IC50	Hepatitis C virus		<5 µM
Cc1cccc(C)c1S(=O)(=O)Nc1cc(-c2ccccc2)sc1C(=O)O			NS3 ATPase	IC50	Hepatitis C virus		<5 µM
O=C(O)c1cccc(-c2ccc(CN(C(=O)c3ccc(Cl)cc3Cl)C(Cc3ccccc3)C(=O)O)s2)c1			RNA-dependent RNA polymerase	IC50	Hepatitis C virus		<5 µM
CC[C@H]1C[C@@]1(NC(=O)[C@@H]1C[C@@H](Oc2cc(-c3ccccc3)nc3cc(OC)ccc23)CN1C(=O)[C@H](CC1CCCCC1)NC(=O)OC(C)(C)C)C(=O)NS(=O)(=O)C1CC1	BMS		NS3/NS4A protease	IC50	Hepatitis C virus		<50 µM
COc1ccccc1COC(=O)Nc1ccsc1-c1nc(C(=O)O)c(O)c(=O)[nH]1			HCV polymerase	IC50	Hepatitis C virus		<25 µM
CCCN(NC(=O)[C@@H]1C[C@@H](OCc2ccccc2)CN1C(=O)[C@@H](NC(=O)[C@H]([C@@H](C)CC)N(O)C(=O)[C@@H](CCC(=O)O)NC(=O)[C@H](CC(=O)O)NC(C)=O)C(C)C)C(=O)NCc1ccc2c(c1)OCO2			NS3 protease/NS4A cofactor	IC50	Hepatitis C virus		0.5 µM
O=C(Nc1ccsc1-c1nc(C(=O)O)c(O)c(=O)[nH]1)OCC1CCCCC1			HCV polymerase	IC50	Hepatitis C virus		<25 µM
CN(C(=O)c1ccc(C(F)(F)F)cc1F)c1cc(-c2ccccc2)sc1C(=O)O			NS3 ATPase	IC50	Hepatitis C virus		5–20 µM
C=CC1CC1(NC(=O)[C@@H]1C[C@@H](Oc2cc(-c3ccccc3)nc3cc(OC)ccc23)CN1C(=O)[C@H](CC(C)C)NC(=O)OC(C)(C)C)C(=O)NS(C)(=O)=O	BMS		NS3/NS4A protease	IC50	Hepatitis C virus		<0.5 µM
O=C(CN(c1cc(C(F)(F)F)ccc1Cl)S(=O)(=O)c1ccccc1)NCc1ccncc1	HepDE19		HBeAg production	IC50	Hepatitis B virus	ELISA	4.55 µM
Cc1ccc(CNC(=O)Nc2cscc2-c2nc(C(=O)O)c(O)c(=O)[nH]2)cc1			HCV polymerase	IC50	Hepatitis C virus		<25 µM
O=C(O)[C@H](Cc1ccccc1)N(Cc1cnc(N2CCN(Cc3ccccc3)CC2)s1)C(=O)c1ccc(Cl)cc1Cl			RNA-dependent RNA polymerase	IC50	Hepatitis C virus		<5 µM
Cc1ccccc1S(=O)(=O)Nc1cc(-c2nccs2)sc1C(=O)O			NS3 ATPase	IC50	Hepatitis C virus		<5 µM
CCCC(NC(=O)[C@@H]1CCCN1C(=O)[C@@H](NC(=O)[C@@H](NC(=O)[C@@H](CCC(=O)O)NC(=O)[C@H](CC(=O)O)NC(C)=O)[C@@H](C)CC)C(C)C)C(=O)C(=O)NCc1ccccc1			NS3 protease/NS4A cofactor	IC50	Hepatitis C virus		2 µM
CC[C@@H]1C[C@]1(NC(=O)[C@@H]1C[C@@H](Oc2cc(-c3ccccc3)nc3cc(OC)ccc23)CN1C(=O)[C@@H](NC(=O)CC1CC1)C(C)C)C(=O)NS(=O)(=O)C1CC1	BMS		NS3/NS4A protease	IC50	Hepatitis C virus		<0.05 µM
CN(C)CCNC(=O)c1ccc(-c2ccc(Cl)cc2)c(-c2ccc3cc(-c4nc5cc(C(=O)O)ccc5n4C4CCCCC4)ccc3n2)c1		33 µM	NS5B polymerase	inhibition	Hepatitis C virus		98.35%
Cc1ccc(S(=O)(=O)N(c2cc(-c3ccccc3)sc2C(=O)O)C(C)C)c(C)c1			NS3 ATPase	IC50	Hepatitis C virus		5–20 µM
N#Cc1ccccc1S(=O)(=O)Nc1ccccc1-c1nc(C(=O)O)c(O)c(=O)[nH]1			HCV polymerase	IC50	Hepatitis C virus		<100 µM
O=C(N[C@@H](Cc1cc2ccccc2[nH]1)C(=O)O)c1cc2nc(OCc3ccccc3)c(CC3CCCCC3)c(=O)n2[nH]1			RNA-dependent RNA polymerase	IC50	Hepatitis C virus		1–10 µM
O=C(O)C(Cc1ccccc1)N(Cc1ccc(-c2cccs2)s1)C(=O)c1ccc(Cl)cc1Cl			RNA-dependent RNA polymerase	IC50	Hepatitis C virus		<5 µM
CCC[C@]1(CC(=O)O)OCCc2c1[nH]c1c(C)ccc(C#N)c21	320-3-1 genotype 1B		NS5B polymerase	IC50	Hepatitis C virus		0.4 µM
C=C[C@@H]1C[C@]1(NC(=O)[C@@H]1C[C@@H](Oc2cc(-c3ccccc3)nc3cc(OC)ccc23)CN1C(=O)[C@@H](NC(=O)OC(C)(C)C)C(C)(C)C)C(=O)NS(=O)(=O)c1ccccc1[N+](=O)[O-]	BMS		NS3/NS4A protease	IC50	Hepatitis C virus		<0.05 µM
O=C(O)c1cnn2c(C3CCCCC3)c(-c3ccc4c(c3)OCO4)cnc12			RNA-dependent RNA polymerase	IC50	Hepatitis C virus		1–10 µM
O=C(Nc1ccsc1-c1nc(OCc2ccccc2)c(O)c(C(=O)O)n1)OCc1ccccc1			HCV polymerase	IC50	Hepatitis C virus		<50 µM
CCOC(=O)c1ccccc1-c1ccc(CN(C(=O)c2ccc(Cl)cc2Cl)C(Cc2ccccc2)C(=O)O)s1			RNA-dependent RNA polymerase	IC50	Hepatitis C virus		<5 µM
Cc1ccccc1CNC(=O)Nc1ccccc1-c1nc(C(=O)O)c(O)c(=O)[nH]1			HCV polymerase	IC50	Hepatitis C virus		<100 µM
C=C[C@H]1C[C@@]1(NC(=O)[C@@H]1C[C@@H](Oc2cc(-c3ccccc3)nc3cc(OC)ccc23)CN1C(=O)[C@@H](NC(=O)OC(C)(C)C)C(C)(C)C)C(=O)NS(C)(=O)=O	BMS		NS3/NS4A protease	IC50	Hepatitis C virus		<0.5 µM
CC(C)c1ccc(S(=O)(=O)Nc2ccccc2-c2nc(C(=O)O)c(O)c(=O)[nH]2)cc1			HCV polymerase	IC50	Hepatitis C virus		<100 µM
O=C(O)CCNC(=O)c1cc2nc(-c3ccc(Cl)cc3)cc(-c3ccc(Oc4ccccc4)cc3)n2n1			RNA-dependent RNA polymerase	IC50	Hepatitis C virus		1–10 µM
C=C[C@@H]1C[C@]1(NC(=O)[C@@H]1C[C@@H](Oc2cc(-c3ccccc3)nc3cc(OC)ccc23)CN1C(=O)[C@@H](NC(=O)OC(C)(C)C)C(C)(C)C)C(=O)NS(=O)(=O)c1ccccc1C	BMS		NS3/NS4A protease	IC50	Hepatitis C virus		<0.05 µM
Cc1ccccc1S(=O)(=O)Nc1cc(-c2cccc(O)c2)sc1C(=O)O			NS3 ATPase	IC50	Hepatitis C virus		<5 µM
C=C[C@@H]1C[C@]1(NC(=O)[C@@H]1C[C@@H](Oc2cc(-c3ccccc3)nc3cc(OC)ccc23)CN1C(=O)[C@@H](NC(=O)OCCCC)C(C)(C)C)C(=O)NS(=O)(=O)C1CC1	BMS		NS3/NS4A protease	IC50	Hepatitis C virus		<0.05 µM
O=C(O)c1sc(-c2ccccc2)cc1N(C(=O)c1ccc(Cl)cc1Cl)c1ccccc1			NS3 ATPase	IC50	Hepatitis C virus		<5 µM
O=C(O)c1ccc2c(c1)nc(-c1ccc3nc(-c4ccc(Oc5ccc(Cl)cc5)cc4Cl)ccc3c1)n2C1CCCCC1		100 µM	NS5B polymerase	inhibition	Hepatitis C virus		100%
CC(C)=CCN(C(=O)c1ccc(C)cc1)c1cc(-c2ccccc2)sc1C(=O)O			NS3 ATPase	IC50	Hepatitis C virus		5–20 µM
C=C[C@@H]1C[C@]1(NC(=O)[C@@H]1C[C@@H](Oc2cc(-c3ccccc3)nc3cc(OC)ccc23)CN1C(=O)[C@@H](NC)C(C)(C)C)C(=O)NS(=O)(=O)C1CC1	BMS		NS3/NS4A protease	IC50	Hepatitis C virus		<0.05 µM
O=C(O)c1cc2nc(-c3ccoc3)c(C3CCCCC3)c(=O)n2[nH]1			RNA-dependent RNA polymerase	IC50	Hepatitis C virus		1–10 µM
Cc1ccc(C(=O)N(C)c2cc(-c3ccc(OC(F)(F)F)cc3)sc2C(=O)O)cc1			NS3 ATPase	IC50	Hepatitis C virus		5–20 µM

Repeating the final 5 entries:

smiles,strain,dose,target,measure,organism,read by,value
O=C(O)c1ccc2c(c1)nc(-c1ccc3nc(-c4ccc(Oc5ccc(Cl)cc5)cc4Cl)ccc3c1)n2C1CCCCC1,,100 µM,NS5B polymerase,inhibition,Hepatitis C virus,,100%
CC(C)=CCN(C(=O)c1ccc(C)cc1)c1cc(-c2ccccc2)sc1C(=O)O,,,NS3 ATPase,IC50,Hepatitis C virus,,5–20 µM
C=C[C@@H]1C[C@]1(NC(=O)[C@@H]1C[C@@H](Oc2cc(-c3ccccc3)nc3cc(OC)ccc23)CN1C(=O)[C@@H](NC)C(C)(C)C)C(=O)NS(=O)(=O)C1CC1,BMS,,NS3/NS4A protease,IC50,Hepatitis C virus,,<0.05 µM
O=C(O)c1cc2nc(-c3ccoc3)c(C3CCCCC3)c(=O)n2[nH]1,,,RNA-dependent RNA polymerase,IC50,Hepatitis C virus,,1–10 µM
Cc1ccc(C(=O)N(C)c2cc(-c3ccc(OC(F)(F)F)cc3)sc2C(=O)O)cc1,,,NS3 ATPase,IC50,Hepatitis C virus,,5–20 µM